Measurements taken from ChEMBL document CHEMBL1926580, “Identification and development of 2,5-disubstituted oxadiazole as potential candidate for treatment of XDR and MDR tuberculosis” (2012).
In brackets after ≈: the same amount, converted by molar mass.

Assays:
[1] = tested on: Mycobacterium tuberculosis; assay: Antitubercular activity against Mycobacterium tuberculosis H37Rv ATCC 27294 assessed as intracellular ATP level after 5 days by luminescence assay; format: functional
Method in brief: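 Growth inhibition of M. tuberculosis H37Rv reported as MIC50. Compounds were dissolved in 90% DMSO (stock), twofold serially diluted in duplicate to 10 concentrations, and spotted into 384-well plates. Assays were run at least twice.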

[2] = tested on: Mycobacterium tuberculosis; assay: Antimycobacterial activity against isoniazid, rifampin, streptomycin, ethambutol and capreomycin-resistant Mycobacterium tuberculosis TN2557 assessed as intracellular ATP level after 5 days by luminescence assay
[3] = tested on: Mycobacterium tuberculosis; assay: Antimycobacterial activity against isoniazid, rifampin, streptomycin, ethambutol, ethionamide, kanamycin and ciprofloxacin-resistant Mycobacterium tuberculosis TN1618 assessed as intracellular ATP level after 5 days by luminescence assay
[4] = tested on: Mycobacterium tuberculosis; assay: Antimycobacterial activity against isoniazid, rifampin, ethambutol and pyrazinamide-resistant Mycobacterium tuberculosis TN715 assessed as intracellular ATP level after 5 days by luminescence assay
[5] = tested on: Mycobacterium tuberculosis; assay: Antimycobacterial activity against isoniazid and rifampin-resistant Mycobacterium tuberculosis TN1314 assessed as intracellular ATP level after 5 days by luminescence assay
[6] = tested on: Mycobacterium tuberculosis; assay: Antimycobacterial activity against isoniazid, rifampin, streptomycin, ethambutol, ethionamide and kanamycin-resistant Mycobacterium tuberculosis TN576 assessed as intracellular ATP level after 5 days by luminescence assay
[7] = tested on: Mycobacterium tuberculosis; assay: Antimycobacterial activity against isoniazid, rifampin, streptomycin, ethambutol and ethionamide-resistant Mycobacterium tuberculosis TN768 assessed as intracellular ATP level after 5 days by luminescence assay
[8] = tested on: Mycobacterium tuberculosis; assay: Antimycobacterial activity against isoniazid, streptomycin and ethambutol-resistant Mycobacterium tuberculosis TN1195 assessed as intracellular ATP level after 5 days by luminescence assay
[9] = tested on: Mycobacterium tuberculosis; conditions: E8133
[10] = tested on: Mycobacterium tuberculosis; assay: Antimycobacterial activity against isoniazid, streptomycin, ethambutol and pyrazinamide-resistant Mycobacterium tuberculosis TN702 assessed as intracellular ATP level after 5 days by luminescence assay
[11] = tested on: Mycobacterium tuberculosis; assay: Antimycobacterial activity against rifampin, streptomycin, ethambutol, ethionamide, kanamycin and ciprofloxacin-resistant Mycobacterium tuberculosis TN565 assessed as intracellular ATP level after 5 days by luminescence assay
[12] = tested on: Mycobacterium tuberculosis; assay: Antimycobacterial activity against isoniazid, rifampin, streptomycin and ethambutol-resistant Mycobacterium tuberculosis TN1811 assessed as intracellular ATP level after 5 days by luminescence assay
[13] = tested on: Mycobacterium tuberculosis; assay: Antimycobacterial activity against isoniazid, rifampin and ethambutol-resistant Mycobacterium tuberculosis TN772 assessed as intracellular ATP level after 5 days by luminescence assay

SMILES	MBC90 [1]	MIC50 [1]	MIC [2]	MIC [3]	MIC [4]	MIC [5]	MIC [6]	MIC [7]	MIC [8]	MIC [1]	MIC [9]	MIC [10]	MIC [11]	MIC [12]	MIC [13]
ClCCSc1nnc(COc2ccc(Cl)cc2Cl)o1	1.25 µM (≈ 0.425 µg/mL)	0.11 µM (≈ 0.0374 µg/mL)	–	–	–	–	–	–	–	–	–	–	–	–	–
ClCCSc1nnc(Cc2ccc(Cl)cc2Cl)o1	1.25 µM (≈ 0.405 µg/mL)	0.04 µM (≈ 0.0129 µg/mL)	0.13 µg/mL (≈ 0.402 µM)	0.06 µg/mL (≈ 0.185 µM)	0.06 µg/mL (≈ 0.185 µM)	0.03 µg/mL (≈ 0.0927 µM)	0.06 µg/mL (≈ 0.185 µM)	0.06 µg/mL (≈ 0.185 µM)	0.25 µg/mL (≈ 0.772 µM)	0.013 µg/mL (≈ 0.0402 µM)	0.13 µg/mL (≈ 0.402 µM)	0.25 µg/mL (≈ 0.772 µM)	0.06 µg/mL (≈ 0.185 µM)	0.03 µg/mL (≈ 0.0927 µM)	0.03 µg/mL (≈ 0.0927 µM)
O=[N+]([O-])c1cccc(OCc2nnc(SCCCl)o2)c1	1.25 µM (≈ 0.395 µg/mL)	0.19 µM (≈ 0.06 µg/mL)	–	–	–	–	–	–	–	–	–	–	–	–	–
O=[N+]([O-])c1cccc(Cc2nnc(SCCCl)o2)c1	1.25 µM (≈ 0.375 µg/mL)	0.2 µM (≈ 0.0599 µg/mL)	–	–	–	–	–	–	–	–	–	–	–	–	–
